The target of this test is GPCysRRLL-I53-50A (Lassa virus, strain Josiah).

In turn, GPCysRRLL-I53-50A had a stoichiometry N of 3.

Usually stoichiometry N stands for the number of molecules, sites or subunits per partner or assembly.

The record behind these values is doi:10.1101/2023.12.21.572918 (bioRxiv, 2023).
